Laboratory results as given in paper PMC6687188, “Novel lactate dehydrogenase inhibitors with in vivo efficacy against Cryptosporidium parvum” (PLoS Pathogens, 2019).

Target: recombinant CpLDH protein (Cryptosporidium parvum, UniProt Q9GT92, F198L/K295E/R251K)
Assay: Inhibition of the catalytic activity of recombinant CpLDH (reduction of pyruvate to lactate, OD340)
Conditions: 20 μM compound; 10 mM pyruvate, 1 mM NADH; values below 0 = augmenters

c1ccc2c(NCCCCCCCCNc3c4ccccc4nc4ccccc34)c3ccccc3nc2c1
MEAN CpLDH INHIBITION (%): -99.53%
